In patent publication US20260217797A1:

Key:
Experiment in all cases: cell-based or functional assay
[1] = target: SARS-CoV-2 Delta (B.1.617.2) spike protein (on reporter virus particles) (SARS-CoV-2) (UniProt P0DTC2)
[2] = target: SARS-CoV-2 Omicron (B.1.529) spike protein (on reporter virus particles) (SARS-CoV-2) (UniProt P0DTC2)
[3] = target: SARS-CoV-2 Beta (B.1.351) spike protein (on reporter virus particles) (SARS-CoV-2) (UniProt P0DTC2)

Substance: RGN10987 (antibody)
- Delta PsV IC50 [1]: 523 pM
- Omicron PsV IC50 [2]: 242 pM

Substance: RGN10933 (antibody)
- Beta IC50 [3]: 29000 pM
- Delta IC50 [1]: 41 pM
- Delta PsV IC50 [1]: 290 pM
- Omicron PsV IC50 [2]: 32500 pM
